Pooled drug test results. Numbers come from NIAID ChemDB, via PubChem.

Shared fields: growth or infection tests; species: Sindbis virus; cells: VERO; measure: EC50

Lines come from different laboratories, so protocols vary. ECn is the concentration giving n% inhibition of infection, replication or growth. Blank or dashed fields: not listed here.

SMILES | method | value
CC=NC(=N)c1nc(-c2ccc(C)cc2)n(COCCO)n1 | cytopathic effect | >100 µg/mL
CC(C)O[C@@H]1[C@H](OC(C)C)[C@@H](COS(=O)(=O)NC(=O)O[C@H]2O[C@H](COC(=O)c3ccccc3)[C@@H](OC(=O)c3ccccc3)[C@H](OC(=O)c3ccccc3)[C@@H]2OC(=O)c2ccccc2)O[C@H]1n1ccc(=O)[nH]c1=O | plaque count | 40 µg/mL
O=c1ccn([C@@H]2C[C@H](CO)C[C@H]2CO)c(=O)[nH]1 |  | >100 µg/mL
CC1(C)[C@@H](CO)CC[C@@]1(C)Cn1nnc2c(Cl)ncnc21 | cytopathic effect | >400 µg/mL
CC1(CO)CCC(Cn2nnc3c(Cl)nc(N)nc32)C1(C)C | cytopathic effect | >100 µg/mL
CC=NC(=N)c1nc(-c2ccc(OC)cc2)n(Cc2ccccc2)n1 | cytopathic effect | >10 µg/mL
CC1(C)[C@@H](CO)CC[C@@]1(C)Cn1ccc(=O)[nH]c1=O | cytopathic effect | >400 µg/mL
O=C(NS(=O)(=O)OC[C@H]1O[C@@H](n2ccc(=O)[nH]c2=O)[C@H](O)[C@@H]1O)O[C@H]1O[C@H](COC(=O)c2ccccc2)[C@@H](OC(=O)c2ccccc2)[C@H](OC(=O)c2ccccc2)[C@H]1OC(=O)c1ccccc1 | plaque count | 55 µg/mL
CC(C)Nc1ncnc2c1ncn2C1C[C@H](CO)[C@@H](CO)C1 |  | >100 µg/mL
Cc1cn([C@@H]2O[C@H](CO)[C@](O)(C(F)(F)F)[C@H]2O)c(=O)[nH]c1=O | cytopathic effect | >200 µg/mL
CC(C)O[C@@H]1[C@H](OC(C)C)[C@@H](COS(=O)(=O)NC(=O)O[C@H]2O[C@H](COCc3ccccc3)[C@H](OCc3ccccc3)[C@H](OCc3ccccc3)[C@H]2OCc2ccccc2)O[C@H]1n1ccc(=O)[nH]c1=O | plaque count | 100 µg/mL
Nc1ncnc2c1ccn2[C@@H]1C[C@H](O)[C@@H](O)[C@H]1O |  | >400 µg/mL
Nc1ncnc2c1ncn2[C@@H]1C=C(CO)[C@@H](O)C1 | cytopathic effect | >400 µg/mL
C=C(N=CC)c1nc(-c2ccccc2)n(C2O[C@H](CO)[C@@H](O)[C@H](O)[C@H]2O)n1 | cytopathic effect | >200 µg/mL
CC(=O)OC[C@H]1O[C@H](OC(=O)NS(=O)(=O)OC[C@H]2O[C@@H](n3ccc(=O)[nH]c3=O)[C@H](OC(C)C)[C@@H]2OC(C)C)[C@@H](OC(C)=O)[C@@H](OC(C)=O)[C@@H]1OC(C)=O | plaque count | >100 µg/mL
CC(Sc1ncnc2c1cnn2COCC(O)CO)C(N)=O | cytopathic effect | >400 µg/mL
CON=C[C@H]1O[C@@H](n2cnc3c(N)ncnc32)[C@H](O)[C@@H]1O | cytopathic effect | >100 µg/mL
CC(C)O[C@@H]1[C@H](OC(C)C)[C@@H](COS(=O)(=O)NC(=O)O[C@H]2C[C@@H](OC(=O)c3ccccc3)[C@H](OC(=O)c3ccccc3)[C@@H](COC(=O)c3ccccc3)O2)O[C@H]1n1ccc(=O)[nH]c1=O | plaque count | >100 µg/mL
CC1(CO)CCC(Cn2cnc3c(=O)[nH]cnc32)C1(C)C | cytopathic effect | >200 µg/mL
Nc1ncnc2c1ncn2[C@@H]1C=C(CO)[C@@H](O)[C@@H]1O | cytopathic effect | >400 µg/mL
NC(=O)CSc1ncnc2c1cnn2COCCO | cytopathic effect | >400 µg/mL
Nc1ncnc2c1ncn2[C@@H]1O[C@H](C=NO)[C@@H](O)[C@H]1O | cytopathic effect | >0.4 µg/mL
C=CCc1ncn2c(=O)[nH]c(NC(C)=O)nc12 | cytopathic effect | >200 µg/mL
Cc1cccn2c(C3OCCO3)cnc12 |  | >1000 µM
Cc1nc(C(C)C)c2[nH]c(=S)[nH]c(=O)n12 | cytopathic effect | >200 µg/mL
C=C(N=CC)c1nc(-c2ccc(C)cc2)n([C@@H]2O[C@H](CO)[C@@H](O)[C@H]2O)n1 | cytopathic effect | >40 µg/mL
Nc1ncnc2c1ncn2[C@@H]1O[C@H](CO)[C@](O)(C(F)(F)F)[C@H]1O | cytopathic effect | >200 µg/mL
C=CCc1nc(C)n2c(=O)[nH]c(=S)[nH]c12 | cytopathic effect | >200 µg/mL
C=C(N=CC)c1nc(-c2ccc(OC)cc2)n([C@@H]2O[C@H](CO)[C@@H](O)[C@H]2O)n1 | cytopathic effect | >100 µg/mL
Cc1cccn2c(C3OCCS3)cnc12 |  | >1000 µM
CC1(CO)CCC(Cn2nnc3c(Cl)ncnc32)C1(C)C | cytopathic effect | >40 µg/mL
CC=NC(=N)c1nc(-c2ccccc2)n(Cc2ccccc2)n1 | cytopathic effect | >4 µg/mL
CC1(CO)CCC(Cn2cnc3c(Cl)nc(N)nc32)C1(C)C | cytopathic effect | >200 µg/mL
Cc1ccn2c(C3OCCO3)cnc2c1 |  | >1000 µM
CC=NC(=N)c1nc(-c2ccc(OC)cc2)n(COCCO)n1 | cytopathic effect | >100 µg/mL
Nc1nccc2c1ncn2[C@@H]1C[C@H](CO)[C@@H](O)[C@H]1O | cytopathic effect | 7 µg/mL
CC(C)OC1[C@H](n2ccc(=O)[nH]c2=O)O[C@H](COS(=O)(=O)NC(=O)N[C@H]2O[C@H](COCc3ccccc3)[C@@H](OCc3ccccc3)[C@H](OCc3ccccc3)[C@H]2OCc2ccccc2)[C@H]1OC(C)C | plaque count | 75 µg/mL
Nc1ncnc2c1ncn2[C@@H]1O[C@H](C(O)O)[C@@H](O)[C@@H]1O | cytopathic effect | >200 µg/mL
O=c1[nH]cnc2c1ncn2C1C[C@H](CO)[C@@H](CO)C1 |  | >100 µg/mL
CCC(Sc1ncnc2c1cnn2CCCCO)C(N)=O | cytopathic effect | >400 µg/mL
CC(C)O[C@@H]1[C@H](OC(C)C)[C@@H](COS(=O)(=O)NC(=O)O[C@H]2O[C@H](COCc3ccccc3)[C@@H](OCc3ccccc3)[C@H](OCc3ccccc3)[C@H]2OCc2ccccc2)O[C@H]1n1ccc(=O)[nH]c1=O | plaque count | >100 µg/mL
CC1(CO)CCC(Cc2nc3ncnc(N)c3[nH]2)C1(C)C | cytopathic effect | >10 µg/mL
Nc1ncnc2c1ncn2C[C@H](O)CO | cytopathic effect | >400 µg/mL
OC[C@H]1O[C@@H](c2cc(Cl)c(F)cc2F)C[C@@H]1O | cytopathic effect | >80 µg/mL
CC=NC(=N)c1nc(-c2cccc(C)c2)n(Cc2ccccc2)n1 | cytopathic effect | >10 µg/mL
CC1(C)[C@@H](CO)CC[C@@]1(C)Cn1nnc2c(N)ncnc21 | cytopathic effect | >400 µg/mL
Nc1ncnc2c1ncn2[C@@H]1O[C@H](C=O)[C@@H](O)[C@H]1O | cytopathic effect | >200 µg/mL
CC1(CO)CCC(Cn2cnc3c(N)nc(N)nc32)C1(C)C | cytopathic effect | >40 µg/mL

4 of the rows above, restated:

| SMILES | method | value |
|---|---|---|
| CC1(CO)CCC(Cn2cnc3c(=O)[nH]cnc32)C1(C)C | cytopathic effect | >200 µg/mL |
| CC=NC(=N)c1nc(-c2ccc(OC)cc2)n(Cc2ccccc2)n1 | cytopathic effect | >10 µg/mL |
| Nc1ncnc2c1ncn2[C@@H]1C=C(CO)[C@@H](O)[C@@H]1O | cytopathic effect | >400 µg/mL |
| Cc1cccn2c(C3OCCO3)cnc12 |  | >1000 µM |